Converted amounts (≈) assume the structure as drawn. Like-named read-outs stand apart in the source and are kept apart here.
Columns and labels:
[1] = tested on: P. falciparum 3D7 (chloroquine-sensitive); conditions: 3D7 strain; for Mean IC50: 48 h, SYBR Green I
[2] = tested on: P. falciparum Dd2 (chloroquine-resistant); conditions: Dd2 strain; for Mean IC50: 48 h, SYBR Green I
[3] = tested on: P. falciparum 3D7 (chloroquine-sensitive); assay: microbe, parasite or virus in culture; conditions: Plasmodium falciparum
[4] = tested on: P. falciparum Dd2 (chloroquine-resistant); assay: microbe, parasite or virus in culture; conditions: Plasmodium falciparum

SMILES | Activity class (superscript on mean IC50) [1] | Mean IC50 [1] | Activity class (superscript on mean IC50) [2] | Mean IC50 [2] | IC50 ([3]; 3D7, 48 h, read-out: Mean IC50) | IC50 ([3]; 3D7, read-out: Activity class (superscript on mean IC50)) | IC50 ([4]; DD2, 48 h, read-out: Mean IC50) | IC50 ([4]; DD2, read-out: Activity class (superscript on mean IC50))
O=C1C(O)=C(Nc2ccccc2)C(=O)c2ccccc21 [4a] | a (high activity^a (IC50 ≤ 10 μg/ml)) | 2.99 µg/mL | b (moderate activity^b (10 < IC50 < 100 μg/ml)) | 11.79 µg/mL |  |  |  | 
COc1ccc(NC2=C(O)C(=O)c3ccccc3C2=O)cc1 [4c] | a (high activity^a (IC50 ≤ 10 μg/ml)) | 2.06 µg/mL | b (moderate activity^b (10 < IC50 < 100 μg/ml)) | 10.10 µg/mL |  |  |  | 
CCN(CC)CCCC(C)Nc1ccnc2cc(Cl)ccc12 (stereo not drawn) [Chloroquine] |  |  |  |  | 0.012 µg/mL (≈ 0.0375 µM) | < 10 µg/mL | 0.15 µg/mL (≈ 0.469 µM) | < 10 µg/mL

— publication PMC6300878, “In vitro antiplasmodial activity, pharmacokinetic profiles and interference in isoprenoid pathway of 2-aniline-3-hydroxy-1.4-naphthoquinone derivatives” (Malaria Journal, 2018)
